# Primary screen of a compound library

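Growth of Mycobacterium tuberculosis over 3 days (7H9 medium with glucose and tyloxapol); the read-out is not stated. Compounds at 500 µM. The record gives no direction; compounds that gave an IC50 in retests scored well above the rest, so higher reads as more growth inhibition. Size under these conditions: about 18,000 compounds, about 1,400 of them at 50% or above in at least one test.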

Results are given as percent effect.
The controls that fix the scale are not given in the record; negative values are as filed.
This is part of a subset picked to be rich in strong results.

| structure | percent effect |
|---|---|
| `Cc1cc2c(cc1CN)OCCO2` | 17.27% |
| `c1ccc(C2CNCCCO2)cc1` (stereo unspecified) | 76.5% |
| `OC[C@@H]1CCCN1Cc1ccc(F)c2cccnc12` | 35.05% |
| `Cc1ccc(C(=O)N2CCN(c3nccs3)CC2)o1` | 75.8% |
| `Fc1cc(Cl)cnc1N1CCCNCC1` | 58.84% |
| `Cc1cc(S(=O)(=O)NC2CCS(=O)(=O)C2)c(C)s1` (stereo unspecified) | 54.29% |
| `CS(=O)(=O)N1CCN(Cc2cccc(Br)c2)CC1` | 4.59% |
| `Cn1cncc1CCNC(=O)c1ccc(C#N)cc1` | 6.735% |
| `CC(C(=O)N1CC[C@H](O)C1)c1ccsc1` (stereo partly specified) | 10.58% |
| `COc1ccc(S(=O)(=O)N2CC=C(C)CC2)cc1` | -15.36% |
| `FC(F)Oc1cccc(N2CCNCC2)c1` | 66.41% |
| `Cc1ccc(CNC(C(N)=O)c2ccccc2)o1` (stereo unspecified) | 4.94% |
| `CCC(CC)(CC)NC(=O)NCc1nccn1C` | -3.25% |
| `NC(=O)c1c(F)cccc1OCc1noc(C2CC2)n1` | 1.172% |
| `CCC(N)C(=O)N1CCN(c2ccc(F)cc2Cl)CC1` (stereo unspecified) | 78.96% |
| `CC(C)c1ccnc(N2CCNCC2)n1` | 30.46% |
| `O=C(C1CCC1)N1CCc2ccc(O)cc2C1` | 48.98% |
| `CC(=O)N1CCC(NC(=O)NCc2sccc2C)CC1` | 12.35% |
| `Cc1occc1C(=O)N1CCN(c2nccs2)CC1` | 28.61% |
| `CN(Cc1cccc(C#N)c1)C(=O)C1CC1` | 50.2% |
| `Cn1ccnc1C1CCCN1` (stereo unspecified) | -3.847% |
| `O=C(CCCc1ccccc1)N1CCNCC1` | 8.679% |
| `CCCOC1CCCNC1` (stereo unspecified) | 5.938% |
| `COCCOc1cccc(CNCCNS(C)(=O)=O)c1` | 17.03% |
| `Cc1cc(C(N)=O)n[nH]1` | 7.903% |
| `COC(=O)C(CN)c1ccc(Cl)cc1` (stereo unspecified) | 8.82% |
| `CN1CCC(CNC(=O)c2ccccc2F)CC1` | 4.488% |
| `CCC(C)NC(=O)N(CCN(C)C)CCN(C)C` (stereo unspecified) | -2.846% |
| `CCNCC1CCOC1` (stereo unspecified) | -3.174% |
| `CN(C)S(=O)(=O)c1ccc2[nH]c(=O)oc2c1` | 15.21% |
| `Cc1cc(CN(C)S(=O)(=O)c2c(C)noc2C)no1` | 0.9692% |
| `O=C(NCc1cccc(Cn2cncn2)c1)C1CC1` | 8.761% |
| `O=C(NCCCOC(F)F)NCc1ccc(Br)o1` | 70.02% |
| `CCNC1=NN=C(c2ccc(OC)c(F)c2)CS1` | 78.7% |
| `O=C(CCOc1cccc(F)c1)NCC1CCCO1` (stereo unspecified) | 38.93% |
| `CNC(=O)CCCNC(=O)OC(C)(C)C` | 11.93% |
| `NCCNS(=O)(=O)c1ccccc1-c1ccccc1` | 29.04% |
| `CSCCCN1CCN(c2cccnc2)CC1` | 13.42% |
| `NCC(CO)Cc1ccncc1` (stereo unspecified) | -11.73% |
| `CNC(=O)CN(C)C(=O)Cc1c[nH]c2ccccc12` | 5.575% |
| `COCc1cccc(C(=O)NC(C)COC)c1` (stereo unspecified) | 21.67% |
| `O=C(NCC1CCNCC1)c1coc2ccccc12` | -6.244% |
| `COc1cccc(CC(=O)N2CCNCC2)c1` | 0.6799% |
| `Cc1noc(C)c1NC(=O)NCCCc1csc(N)n1` | 7.326% |
| `CCc1nccn1CCNC(=O)[C@H]1CC[C@@H](O)CC1` | -10.97% |
| `O=C(NCCOc1cccc2cccnc12)C1CC1` | 25.62% |
| `CCCNCc1ccc2c(c1)n(C)c(=O)n2C` | -1.689% |
| `N[C@@H]1CCO[C@H]1c1cncc(Br)c1` | 11.95% |
| `COC(=O)C(NC(=O)c1ccoc1)c1ccccc1` (stereo unspecified) | 12.17% |
| `O=C(Nc1cc(F)cc(F)c1)c1ccncc1` | 53.47% |
| `Cc1cccc(NC(=O)CN(C)Cc2nnsc2Cl)n1` | 54.81% |
| `Cc1ccnc(NC(=O)CC(C)C)n1` | -5.522% |
| `O=C(CCn1cccn1)N1CCCCCC1` | 51.58% |
| `CCCN1CCN(C(=O)COc2ccccc2)CC1` | 50.36% |
| `CCC1CN(C)c2ccccc2CN1CCOCCO` (stereo unspecified) | -0.3702% |
| `CCOc1ccc(NC(=O)C(C)n2cccn2)cc1` (stereo unspecified) | 34.27% |
| `Cc1cc(C(=O)Nc2nc(C)no2)[nH]n1` | -2.901% |
| `CCOc1ccc(S(=O)(=O)NC2CC2)cc1C(N)=O` | -20.27% |
| `COCc1[nH][nH]c(=O)c1CCN` | -0.8988% |

Repeated from the top, 6 entries:

structure,percent effect
Cc1cc2c(cc1CN)OCCO2,17.27%
c1ccc(C2CNCCCO2)cc1 (stereo unspecified),76.5%
OC[C@@H]1CCCN1Cc1ccc(F)c2cccnc12,35.05%
Cc1ccc(C(=O)N2CCN(c3nccs3)CC2)o1,75.8%
Fc1cc(Cl)cnc1N1CCCNCC1,58.84%
Cc1cc(S(=O)(=O)NC2CCS(=O)(=O)C2)c(C)s1 (stereo unspecified),54.29%

From ChEMBL document CHEMBL3988442, “University of Dundee, Small-Polar-MMV Screening Library” (2021).